A mixed list of measured activities; the numbers were collected in NIAID ChemDB.

Shared fields: growth or infection tests; agent: Candida albicans

A number after MIC or MFC names an inhibition level or a share of isolates. Conditions beyond the fields shown may differ between rows. ECn is the concentration giving n% inhibition of infection, replication or growth. An empty or dashed field is not shown. Two numbers with a dash give a range or band.

smiles	read by	endpoint	strain or isolate	result
Clc1ccc(C(c2ccccc2)N2CCN(CCn3cncn3)CC2)cc1	broth dilution	MIC	ATCC 76615	100 µg/mL
CC(C)[C@]12CC(=O)[C@H](C)[C@H]1C2	broth dilution	MIC99.9	ATCC 90028	>8000 µg/mL
C[C@H]1[C@H](O)[C@@H](C)/C=C/C=C/C=C/C=C/C=C/C=C/C=C/[C@H](O[C@@H]2O[C@H](C)[C@@H](O)[C@H](N)[C@@H]2O)C[C@@H]2O[C@](O)(C[C@@H](O)C[C@@H](O)CC[C@H](O)[C@@H](O)C[C@@H](O)CC(=O)O[C@H]1C)C[C@H](O)[C@H]2C(=O)O	-	MIC90	-	0.5–1 µg/mL
O=C1C(Sc2ccc(F)cc2F)=C(Sc2ccc(F)cc2F)C(=O)c2c(O)cccc21	-	MIC	-	8 µg/mL
CC12CCC(CC1)C(C)(C)O2	broth dilution	MIC99.9	ATCC 90028	>8000 µg/mL
COc1cc(O)c2c(c1)OC(c1ccc(O)cc1)CC2=O	broth dilution	MIC	CBMAI 560	320 µg/mL
O=C1C(Sc2ccccc2F)=CC(=O)c2c(O)cccc21	-	MIC	-	2 µg/mL
[CH3][Sn]([CH3])([CH3])[S]c1nc2ccccc2s1	-	MIC	ATCC 10231	125 µg/mL
CCCCCOc1ccc(-c2cc(-c3ccc(C(=O)N[C@H]4C[C@@H](O)[C@@H](O)NC(=O)[C@@H]5[C@@H](O)[C@@H](C)CN5C(=O)[C@H]([C@H](O)CC(N)=O)NC(=O)[C@H]([C@H](O)[C@@H](O)c5ccc(O)c(OS(=O)(=O)O)c5)NC(=O)[C@@H]5C[C@@H](O)CN5C(=O)[C@H]([C@@H](C)O)NC4=O)cc3)no2)cc1	-	MIC	-	0.015–0.3 µg/mL
ClCCN1CCN(C(c2ccccc2)c2ccc(Cl)cc2)CC1	broth dilution	MIC	ATCC 76615	200 µg/mL
Cn1c(=O)c2c(ncn2C)n(C)c1=O	broth dilution	MIC99.9	ATCC 90028	>8000 µg/mL
C[C@H]1[C@H](O)[C@@H](C)/C=C/C=C/C=C/C=C/C=C/C=C/C=C/[C@H](O[C@@H]2O[C@H](C)[C@@H](O)[C@H](N)[C@@H]2O)C[C@@H]2O[C@](O)(C[C@@H](O)C[C@@H](O)CC[C@H](O)[C@@H](O)C[C@@H](O)CC(=O)O[C@H]1C)C[C@H](O)[C@H]2C(=O)O	-	MIC50	206 isolates	1 µg/mL
O=C1C=CC(=O)c2c(O)cccc21	-	MIC	-	16 µg/mL
COc1ccc(NC(=S)NCCCC(=O)C(C)C)cc1	-	MIC	ATCC2094	24 µg/mL
O=C1C(Sc2ccc(F)cc2)=C(Sc2ccc(F)cc2)C(=O)c2c(O)cccc21	-	MIC	-	2 µg/mL
Cc1ccc(N2NOC(=O)C2S(=O)(=O)Nc2nc3cc(F)ccc3s2)cc1	broth dilution	MIC	MTCC 227	500 µg/mL
CC1=CC[C@H]2C(C)(C)CCC[C@]2(C)[C@H]1C/C=C(\C)CCC/C(C)=C/Cc1cc(O)ccc1O	-	MIC	ATCC 10231	>100 µg/mL
COc1ccc2nc(NS(=O)(=O)C3C(=O)ONN3c3ccc(C)cc3)sc2c1	broth dilution	MIC	MTCC 227	500 µg/mL
O=C(O)CC[N+](=O)[O-]	-	MIC	ATCC 10231	>100 µg/mL
CCC(C)CC(C)CCCCCCCCC(=O)NC1CC(O)CNC(=O)C2C(O)CCN2C(=O)C(C(O)CC(N)=O)NC(=O)C(C(O)Cc2ccc(OP(=O)([O-])[O-])cc2)NC(=O)C2CC(O)CN2C(=O)C(C(C)O)NC1=O.[Na+].[Na+]	-	MFC	MY1028	2 µg/mL
C[CH2][Sn]([CH2]C)([CH2]C)[S]C[C@@H]1CCCN2CCCC[C@H]12	-	MIC	ATCC 10231	15.63 µg/mL
COc1cccc2c1C(=O)C=CC2=O	-	MIC	-	64 µg/mL
O=[N+]([O-])c1cnc[nH]1	-	MIC	-	>50 µM
CCCCCOc1ccc(-c2ccc(-c3ccc(C(=O)N[C@H]4C[C@@H](O)[C@@H](O)NC(=O)[C@@H]5[C@@H](O)[C@@H](C)CN5C(=O)[C@H]([C@H](C)O)NC(=O)[C@H]([C@H](O)[C@@H](O)c5ccc(O)cc5)NC(=O)[C@@H]5C[C@@H](O)CN5C(=O)[C@H]([C@H](C)O)NC4=O)cc3)cc2)cc1	-	MIC	-	0.015–0.125 µg/mL
C=CCSCC=C	-	MIC80	39 isolates	32 µg/mL
CN(C/C=C/c1ccccc1)Cc1cccc2ccccc12	-	MIC	Clinical isolate delta 63	100 µg/mL
C/C=C/C(C)=C/C(C)C(=O)CC1CC(CC(N)=O)CC(=O)O1	-	MIC	IFO 1594	>100 µg/mL
Cc1ccc(N2NOC(=O)C2S(=O)(=O)Nc2nc3ccc(Cl)cc3s2)cc1	broth dilution	MIC	MTCC 227	1000 µg/mL
CC(C)(C)c1ccc(CN(Cc2cccc3ccccc23)n2ccnc2)cc1	-	MIC	-	>200 µM
CCN1C[C@]2(COC)CC[C@H](OC)[C@]34C1[C@@](O)([C@@H](OC)[C@H]23)[C@@]1(O)C[C@H](OC)C2C[C@@H]4[C@@H]1[C@H]2OC(C)=O	-	MBC	-	0.125 µg/mL
COc1ccc2cc(C3=CN4CCC3CC4)ccc2c1	broth dilution	EC50	ATCC 10231	>16 µg/mL
CCC(C)CC(C)CCCCCCCCC(=O)NC1C[C@@H](O)[C@@H](O)NC(=O)[C@@H]2[C@@H](O)CCN2C(=O)[C@H]([C@@H](O)CC(N)=O)NC(=O)[C@H]([C@H](O)[C@@H](O)c2ccc(OP(=O)([O-])O)cc2)NC(=O)[C@@H]2C[C@@H](O)CN2C(=O)[C@H]([C@H](C)O)NC1=O.[Na+]	-	MFC	MY1055	2 µg/mL
Cc1ccc(N2NOC(=O)C2S(=O)(=O)Nc2nc3cc(C)ccc3s2)cc1	broth dilution	MIC	MTCC 227	500 µg/mL
COc1cccc2c1C(=O)C(Sc1ccc(C)cc1)=CC2=O	-	MIC	-	2 µg/mL
CN(C/C=C/c1ccccc1)Cc1cccc2ccccc12	-	MIC	-	>200 µM
O=C(Cn1cnc2ccccc21)N1CCN(C(c2ccccc2)c2ccc(Cl)cc2)CC1	broth dilution	MIC	ATCC 76615	25 µg/mL
CCC(C)CC(C)CCCCCCCCC(=O)N[C@H]1C[C@@H](O)[C@H](NCCN)NC(=O)[C@@H]2[C@@H](O)CCN2C(=O)[C@H]([C@H](O)CCN)NC(=O)[C@H]([C@H](O)[C@@H](O)c2ccc(O)cc2)NC(=O)[C@@H]2C[C@@H](O)CN2C(=O)[C@H]([C@@H](C)O)NC1=O	resazurin	MIC	36S	20 µg/mL
CC(C)OC(=O)CCNC(=S)Nc1ccccc1	-	MIC	ATCC2094	22 µg/mL
Clc1ccc([Se][Se]c2ccc(Cl)cc2)cc1	-	EC50	-	2–10 µM
OC1(c2ccc(-c3ccccc3)cc2)CN2CCC1CC2	broth dilution	EC50	ATCC 10231	>16 µg/mL
Cc1ccc(N2NOC(=O)C2S(=O)(=O)Nc2ccc(-n3c(-c4cccc(Cl)c4)nc4ccccc4c3=O)cc2)cc1	broth dilution	MIC	MTCC 227	1000 µg/mL
CC(C)C12CCC(C)(CC1)O2	broth dilution	MIC99.9	ATCC 90028	>8000 µg/mL
CC1=CC[C@H]2C(C)(C)CCC[C@]2(C)[C@H]1C/C(OS(=O)(=O)[O-])=C(\C)CCC/C(C)=C/Cc1cc(O)ccc1O.[Na+]	-	MIC	ATCC 10231	>100 µg/mL
c1ccc2c(c1)-c1nccc3ccnc-2c13	-	EC50	B311	5.25 µg/mL
CCC(C)n1ncn(-c2ccc(N3CCN(c4ccc(OC[C@H]5CO[C@](Cn6cncn6)(c6ccc(Cl)cc6Cl)O5)cc4)CC3)cc2)c1=O	-	MIC	Isogenic isolate 9 (25X)	0.015 µg/mL
C=C(C)C1CC=C(C)CC1	broth dilution	MIC99.9	ATCC 90028	>8000 µg/mL
COc1cc(O)c(C(C)=O)c(OC)c1	-	MFC	ICB 12	250 µg/mL
Nc1nc(=O)n([C@H]2CS[C@@H](CO)O2)cc1F	-	MIC50	206 isolates	0.25 µg/mL
CC(C)(C)[C@](O)(COc1ccc(Cl)cc1)Cn1cncn1	-	MIC90	-	0.0007 µg/mL
CCC(C)CC(C)CCCCCCCCC(=O)N[C@H]1C[C@@H](O)[C@H](NCCN)NC(=O)[C@@H]2[C@@H](O)CCN2C(=O)[C@H]([C@H](O)CCN)NC(=O)[C@H]([C@H](O)[C@@H](O)c2ccc(O)cc2)NC(=O)[C@@H]2C[C@@H](O)CN2C(=O)[C@H]([C@@H](C)O)NC1=O	-	MIC	-	0.016–2 µg/mL
O=C(NCc1c(Br)c(O)c(O)c(Br)c1Br)NCc1c(Br)c(O)c(O)c(Br)c1Br	-	MIC	ATCC 10231	10 µg/mL
C=CCSSSCC=C	-	MIC80	39 isolates	1 µg/mL
C1=C(c2cc3ccccc3s2)C2CCN1CC2	broth dilution	EC50	ATCC 10231	>16 µg/mL
COc1cccc2c1C(=O)C=C(Sc1ccc(C)cc1)C2=O	-	MIC	-	32 µg/mL
COc1ccccc1O	broth dilution	MIC99.9	ATCC 90028	2000 µg/mL
C[C@H]1[C@H](O)[C@@H](C)/C=C/C=C/C=C/C=C/C=C/C=C/C=C/[C@H](O[C@@H]2O[C@H](C)[C@@H](O)[C@H](N)[C@@H]2O)C[C@@H]2O[C@](O)(C[C@@H](O)C[C@@H](O)CC[C@H](O)[C@@H](O)C[C@@H](O)CC(=O)O[C@H]1C)C[C@H](O)[C@H]2C(=O)O	-	MIC	ATCC 10231	1.6 µg/mL
CC(C)OC(=O)c1ccc(C2=CN3CCC2CC3)cc1	broth dilution	EC50	ATCC 10231	>16 µg/mL
COc1cccc2c1C(=O)C=C(Sc1ccccc1F)C2=O	-	MIC	-	8 µg/mL
CC(N1CCN(c2ccc(-n3cnnn3)cc2)C1=O)[C@](O)(Cn1cncn1)c1ccc(F)cc1F	-	EC50	Clinical isolates	<2 µg/mL
c1cc2c[n+](c1)CCCCCCCCCCCCCCc1ccc[n+](c1)CCCCCCCCCCCC2	-	MIC	ATCC 10231	0.7 µg/mL
C1=C(c2cc3ccccc3o2)C2CCN1CC2	broth dilution	EC50	ATCC 10231	>16 µg/mL
c1cc2c[n+](c1)CCCCCCCCCCCCCc1ccc[n+](c1)CCCCCCCCCCCCC2	-	MIC	ATCC 10231	0.12 µg/mL
NCCCn1ccnc1	-	MIC	-	>50 µM
[CH3][Sn]([CH3])([CH3])[S]c1nc2ccccc2o1	-	MIC	ATCC 10231	31.25 µg/mL
COC(=O)CCNC(=S)Nc1ccc(OC)c(OC)c1	-	MIC	ATCC2094	30 µg/mL
C[C@@H]1[C@H](O)[C@@H](C)/C=C/C=C/CC/C=C/C=C/C=C/C=C/C(O[C@H]2O[C@H](C)[C@@H](O)[C@H](N)[C@@H]2O)CC2O[C@](O)(CC(O)C(O)CCC(O)CC(O)CC(O)CC(=O)O[C@H]1C)CC(O)C2C(=O)O	broth dilution	MIC	MTCC 227	100 µg/mL
CCCCC[C@@H](O)[C@H]1C(=O)O[C@H](C)[C@@H](O)/C=C/C=C/C=C/C=C/C=C(\C)[C@@H](O)[C@H](O)[C@H](O)C[C@H](O)C[C@H](O)C[C@H](O)C[C@H](O)C[C@@H]1O	-	MIC	IPA	6.5 µg/mL
Cc1ccc(N2NOC(=O)C2S(=O)(=O)Nc2nc(-c3c(F)cc(Cl)cc3Cl)cs2)cc1	broth dilution	MIC	MTCC 227	250 µg/mL
c1cc[c]([Sn]([S]C[C@@H]2CCCN3CCCC[C@H]23)([c]2ccccc2)[c]2ccccc2)cc1	-	MIC	ATCC 10231	1.95 µg/mL